## Fitness effects across NS2B and the NS3 protease domain of Zika virus

Protein: NS2B and the protease part of NS3 of Zika virus strain MR766. Positions count along the chain below; NS2B spans 2-131 and NS3 starts at 132.
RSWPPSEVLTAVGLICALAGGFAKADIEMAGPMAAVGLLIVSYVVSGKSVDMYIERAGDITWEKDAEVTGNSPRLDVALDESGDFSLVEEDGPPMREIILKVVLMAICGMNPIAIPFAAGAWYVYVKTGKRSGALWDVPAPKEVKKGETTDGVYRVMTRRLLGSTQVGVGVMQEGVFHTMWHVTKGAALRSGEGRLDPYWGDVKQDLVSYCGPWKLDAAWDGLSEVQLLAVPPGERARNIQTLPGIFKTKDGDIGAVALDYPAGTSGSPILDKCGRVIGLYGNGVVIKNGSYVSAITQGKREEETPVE

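Mutant virus pools were grown in human Huh-7.5 cells. Deep sequencing gave the change in frequency of each mutant relative to wild type, averaged over three replicate libraries (two for positions 207-308).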

The number is log2 of the effect relative to wild type; negative values mean reduced growth, higher values better tolerance.
A change reads original residue, position, new residue.
Values above 0 are not proof of better growth: six high scorers were tested one by one, five grew less well than wild type and one about as well.
Positions 1-103, 104-206 and 207-308 were made and measured as separate libraries.
Position 1 still belongs to NS2A. In the paper, -1 or higher counts as tolerated.
An asterisk is a stop codon; stop codons read about -7, near the floor of the assay.

| mutation | log2 effect |
|---|---|
| M172W | -5.56 |
| I15P | -7.57 |
| A140T | -6.32 |
| V144L | -2.26 |
| K101G | -6.83 |
| G13F | -5.81 |
| V138D | -5.26 |
| S164L | -1.98 |
| K273* | -6.07 |
| V203P | -7.76 |
| E193R | -2.33 |
| A219* | -7.76 |
| T150F | -1.96 |
| G194E | -4.99 |
| S49V | -3.19 |
| D202F | -5.69 |
| G279P | -5.56 |
| R159M | -4.80 |
| I278H | -4.80 |
| A114I | -2.41 |
| I254F | -6.03 |
| S2A | -1.95 |
| P233M | -5.01 |
| I278D | -4.49 |
| S294G | -4.59 |
| G299E | -5.62 |
| E304I | 0.01 |
| R155S | -7.12 |
| Q173N | -2.41 |
| V231R | -5.36 |
| V45K | -5.55 |
| M157R | -5.76 |
| Y199E | -4.75 |
| C211R | -3.76 |
| V36P | -5.08 |
| A188F | -5.39 |
| K288R | -0.40 |
| E89M | -1.68 |
| I246G | -5.64 |
| K288L | -6.44 |
| S268* | -6.66 |
| W3L | -2.70 |
| M52K | -6.41 |
| I278* | -6.88 |
| P139W | -5.38 |
| A34R | -6.42 |
| T184A | -6.74 |
| F247Y | -5.57 |
| Q241R | -6.59 |
| T149G | -5.74 |
| G299T | -5.65 |
| L39N | -4.27 |
| R131H | -5.99 |
| T242N | -5.67 |
| Q173H | -1.13 |
| T61L | -0.26 |
| R195Q | -6.02 |
| S6G | -0.68 |
| M110Q | -1.69 |
| G282N | -4.65 |
| D260P | -4.71 |
| A218G | -3.61 |
| P213F | -2.22 |
| L207G | -8.02 |
| K248T | -3.79 |
| Y199I | -1.52 |
| L243P | -6.72 |
| I60F | -4.77 |
| D65L | -7.70 |
| L243F | -1.09 |
| M29D | -3.88 |
| M172H | -5.45 |

The opening 5 entries, copied out:

- M172W = -5.56
- I15P = -7.57
- A140T = -6.32
- V144L = -2.26
- K101G = -6.83

Reference: Ni et al. 2025, doi:10.1038/s41467-025-63602-z.